Pooled drug test results. Numbers come from NIAID ChemDB, via PubChem.

Common to all: growth or infection tests; agent: Pneumocystis carinii

Blank or dashed fields: not listed here. Percent inhibition refers to the dose given; in toxicity tests it is the harm to the cells. ECn is the concentration giving n% inhibition of infection, replication or growth. Conditions beyond the fields shown may differ between rows.

structure | conditions | dose | cell line | read-out | value
O=C(O)CNCP(=O)(O)O | 7 d | 10 µM |  | inhibition | 39%
CCC[C@@H]1C[C@@H](C(=O)N[C@@H]([C@H]2O[C@H](SC)[C@H](O)[C@@H](O)[C@H]2O)[C@H](C)Cl)N(C)C1 | 10 d | 5 µg/mL |  | inhibition | 10%
CCOC(=O)c1ccc(N2CCN(c3ccc(C(=O)OCC)cc3)CC2)cc1 |  |  | A549 | EC50 | >100 µg/mL
COc1cc([C@@H]2c3cc4c(cc3[C@@H](O[C@@H]3O[C@@H]5CO[C@@H](c6cccs6)O[C@H]5[C@H](O)[C@H]3O)[C@H]3COC(=O)[C@H]23)OCO4)cc(OC)c1O | 7 d | 1 µg/mL |  | inhibition | 81%
Nc1ccn([C@H]2CC[C@@H](CO)O2)c(=O)n1 |  |  |  | EC50 | >100 µg/mL
C[C@](O)(C1CCCCN1)C1CCC2C3CC[C@H]4C[C@@H](O)CC[C@]4(C)C3CC[C@@]21C |  | 10 µM |  | inhibition | 80%
Nc1ccc(S(=O)(=O)Nc2cc(Cl)cc(Cl)c2)cc1 | 5 d | 100 µM |  | inhibition | 51%
CC1(C)S[C@@H]2[C@H](NC(=O)[C@H](N)c3ccccc3)C(=O)N2[C@H]1C(=O)O |  |  |  | EC50 | 10 µg/mL
N/C(=N\O)c1ccc(NC(=O)c2cccc(C(=O)Nc3ccc(/C(N)=N/O)cc3)c2)cc1 |  |  | A549 | EC50 | >100 µg/mL
Cc1ccnc2c1NC(=O)c1cccnc1N2C1CC1 |  |  |  | EC50 | >100 µg/mL
O=c1[nH]cnc2c([C@@H]3O[C@H](CO)[C@@H](O)[C@H]3O)c[nH]c12 |  | 1 µg/mL |  | inhibition | 25%
O=Cc1ccc(N2CCN(c3ccc(C=O)cc3)CC2)cc1 |  |  | A549 | EC50 | >100 µg/mL
O=c1[nH]cnc2c1ncn2[C@H]1CC[C@@H](CO)O1 |  |  |  | EC50 | >100 µg/mL
Nc1ccc(S(=O)(=O)Nc2cc(I)cc(I)c2)cc1 | 5 d | 100 µM |  | inhibition | 95%

The last 2 rows once more:

structure | conditions | dose | cell line | read-out | value
O=c1[nH]cnc2c1ncn2[C@H]1CC[C@@H](CO)O1 |  |  |  | EC50 | >100 µg/mL
Nc1ccc(S(=O)(=O)Nc2cc(I)cc(I)c2)cc1 | 5 d | 100 µM |  | inhibition | 95%